Compound potency records, mixed from different reports. Data source: NIAID ChemDB in PubChem.

Shared fields: target-level tests; agent: Hepatitis C virus

Inhibition is in % at the dose shown (toxicity tests: loss of growth or viability).

| SMILES | protein | measure | tested at | result |
|---|---|---|---|---|
| COc1cccc(-c2cc(-c3ccccc3Cl)n3nc(C(=O)O)cc3n2)c1 | RNA-dependent RNA polymerase | IC50 | - | >10 µM |
| CNC(=O)c1c(-c2ccc(Br)cc2)oc2ccc(OC(C)C)cc12 | Nonstructural protein 5B | IC50 | - | ≤0.5 µM |
| CC[C@H](C)[C@H](NC(=O)[C@H](CC(C)C)NC(=O)CCCC(=O)O)C(=O)N[C@@H](CC1CCCCC1)C(=O)NC1(C(=O)O)CC1 | Nonstructural protein 3 NTPase/helicase | inhibition | 83.5 µM | 3% |
| C/C=C/C(O)[C@H](CC)NC(=O)[C@@H](NC(=O)[C@@H](NC(=O)[C@H](CC(C)C)NC(=O)[C@@H](CCC(=O)O)NC(=O)[C@H](CC(=O)O)NC(C)=O)[C@@H](C)CC)C1CCCCC1 | HCV NS3 protease | inhibition | 10 µM | 7% |
| CC[C@H](C)[C@H](NC(=O)[C@@H](NC(=O)CCC(=O)O)C1CCCCC1)C(=O)N[C@@H](CC1CCCCC1)C(=O)NC1(C(=O)O)CC1 | Nonstructural protein 3 NTPase/helicase | IC50 | - | >83.5 µM |
| Cc1ccc(C(=O)N(c2cc(-c3ccccc3)sc2C(=O)O)C(C)C)c(C#N)c1 | NS3 ATPase | IC50 | - | 5–20 µM |
| CCC(C)[C@H](NC(=O)[C@@H](NC(=O)CCC(=O)O)C1CCCCC1)C(=O)N[C@@H](CCC(=O)O)C(=O)NC1(C(=O)O)CC1 | Nonstructural protein 3 NTPase/helicase | IC50 | - | >167 µM |
| c1ccc(COc2ccc(-c3cnc4c(-c5nn[nH]n5)cnn4c3N3CCOCC3)cc2)cc1 | RNA-dependent RNA polymerase | IC50 | - | >10 µM |
| O=C(O)CCCC(=O)N[C@H](C(=O)N[C@@H](CCC(=O)O)C(=O)N[C@@H](CCC(=O)O)C(=O)NC1(C(=O)O)CC1)C(c1ccccc1)c1ccccc1 | Nonstructural protein 3 NTPase/helicase | inhibition | 83.5 µM | 27% |
| O=C(Nc1cc(-c2ccccc2)sc1C(=O)O)c1ccc(Cl)cc1Cl | NS3 ATPase | IC50 | - | <5 µM |
| NC(=O)CC[C@H](NC(=O)[C@@H](NC(=O)CCC(=O)O)C1CCCCC1)C(=O)N[C@H](C(=O)N[C@@H](CS)C(=O)O)c1ccc(-c2ccccc2)cc1 | Nonstructural protein 3 NTPase/helicase | IC50 | - | <16.7 µM |
| CC[C@H](NC(=O)[C@@H](NC(=O)[C@@H](NC(=O)[C@H](CC(C)C)NC(=O)[C@@H](CCC(=O)O)NC(=O)[C@H](CC(=O)O)NC(C)=O)[C@@H](C)CC)C1CCCCC1)C(=O)/C=C/c1nccs1 | HCV NS3 protease | inhibition | 10 µM | 95% |
| CC(C)[C@H](NC(=O)[C@@H](NC(=O)CCC(=O)O)C1CCCCC1)C(=O)N[C@@H](CCC(=O)O)C(=O)NC1(C(=O)O)CC1 | Nonstructural protein 3 NTPase/helicase | inhibition | 83.5 µM | 14% |
| Cc1ccc(C(=O)N(c2cc(-c3ccccc3)sc2C(=O)O)C(C)C)cc1 | NS3 ATPase | IC50 | - | <5 µM |
| O=C(O)CCCC(=O)N[C@@H](CCC(=O)O)C(=O)N[C@@H](CCC(=O)O)C(=O)N[C@@H](CS)C(=O)O | Nonstructural protein 3 NTPase/helicase | IC50 | - | >16.7 µM |
| FC(F)(F)c1ccc(Oc2ccc(-c3cnc4c(-c5nn[nH]n5)cnn4c3C3CCCCC3)cc2)cc1 | RNA-dependent RNA polymerase | IC50 | - | 1–10 µM |
| CC[C@H](NC(=O)[C@H](CC(C)C)NC(=O)[C@@H](NC(=O)[C@@H](NC(=O)c1cnccn1)C(C)C)C(C)C)C(=O)C(=O)OC | NS3 protease | Ki | - | >100 µM |
| O=C(O)c1cc2nc(-c3ccc(Oc4ccccc4)cc3)cc(-c3cccc(F)c3)n2n1 | RNA-dependent RNA polymerase | IC50 | - | >10 µM |
| CC[C@@H](C=O)NC(=O)[C@@H]1C[C@@H](OC(=O)Nc2ccc(Cl)cc2Cl)CN1C(=O)[C@@H](NC(=O)[C@@H](NC(=O)c1cnccn1)C(C)C)C(C)C | NS3 protease | Ki | - | 1–100 µM |
| CC[C@H](NC(=O)[C@@H](NC(=O)[C@@H](NC(=O)[C@H](CC(C)C)NC(=O)[C@@H](CCC(=O)O)NC(=O)[C@H](CC(=O)O)NC(C)=O)[C@@H](C)CC)C1CCCCC1)C(O)/C=C/c1nccs1 | HCV NS3 protease | IC50 | - | >10 µM |
| CS(=O)(=O)c1ccc(-c2ccc(-c3cnc4c(-c5nn[nH]n5)cnn4c3C3CCCCC3)cc2)cc1 | RNA-dependent RNA polymerase | IC50 | - | <1 µM |
| CC[C@@H](C=O)NC(=O)[C@@H]1C[C@@H](OCc2noc(C(C)(C)C)n2)CN1C(=O)[C@@H](NC(=O)[C@@H](NC(=O)c1cnccn1)C(C)C)C(C)C | NS3 protease | Ki | - | 1–100 µM |
| CC[C@H](NC(=O)[C@@H](NC(=O)[C@@H](NC(=O)[C@H](CC(C)C)NC(=O)[C@@H](CCC(=O)O)NC(=O)[C@H](CC(=O)O)NC(C)=O)[C@@H](C)CC)C1CCCCC1)C(=O)CCc1ccccc1 | HCV NS3 protease | inhibition | 10 µM | 82% |
| CNC(=O)c1c(-c2ccc(F)cc2)oc2cc(N)c(OC(C)C)cc12 | Nonstructural protein 5B | IC50 | - | ≤0.5 µM |
| O=C(O)c1sc(-c2ccccc2)cc1NS(=O)(=O)c1ccccc1F | NS3 ATPase | IC50 | - | 5–20 µM |
| O=C(O)CCC(=O)N[C@H](C(=O)N[C@@H](CCC(=O)O)C(=O)N[C@@H](Cc1ccc2ccccc2c1)C(=O)N[C@@H](CS)C(=O)O)C(c1ccccc1)c1ccccc1 | Nonstructural protein 3 NTPase/helicase | inhibition | 1.67 µM | 3% |
| O=C(O)c1cc2nc(-c3ccc(Cl)cc3)cc(N3CCOCC3)n2n1 | RNA-dependent RNA polymerase | IC50 | - | >10 µM |
| CN(C(=O)c1ccc2ccccc2c1)c1cc(-c2ccccc2)sc1C(=O)O | NS3 ATPase | IC50 | - | 5–20 µM |
| CNC(=O)c1c(-c2ccc(F)cc2)oc2cc(N(C)S(C)(=O)=O)c(OCC(C)(C)O)cc12 | Nonstructural protein 5B | IC50 | - | ≤0.5 µM |
| O=C1CN(c2c(-c3ccc(OCc4ccccc4)cc3)cnc3c(-c4nn[nH]n4)cnn23)CCN1 | RNA-dependent RNA polymerase | IC50 | - | >10 µM |
| CNC(=O)c1c(-c2ccc(F)cc2)oc2cc(N(CCOC)S(C)(=O)=O)c(OC)cc12 | Nonstructural protein 5B | IC50 | - | ≤0.5 µM |
| O=C(O)CCCC(=O)N[C@@H](CCC(=O)O)C(=O)N[C@@H](CCC(=O)O)C(=O)NC1(C(=O)O)CC1 | Nonstructural protein 3 NTPase/helicase | inhibition | 83.5 µM | 17% |
| CC[C@@H](C=O)NC(=O)[C@H](CC(C)C)NC(=O)[C@@H](NC(=O)[C@@H](NC(=O)c1ccc(N(C)C)cc1)C(C)C)C(C)C | NS3 protease | Ki | - | 1–100 µM |

a–b is a range or a potency band. Blank or dashed fields: not listed here. Conditions beyond the fields shown may differ between rows. ICn: concentration for n% inhibition.